The target of assay [1] is T1, OXA-48:P68A,Y211S (Klebsiella pneumoniae, UniProt Q6XEC0, P68A/Y211S). Description: Steady-state enzyme kinetics, OXA-48:P68A,Y211S. In kind it is biochemical. The note with it: for kcat / Km: substrate hydrolysis, 25°C, pH 7.0, error = 95% CI.
Assay [2] addresses T1, OXA-48:P68A,Y211S. Description: IC50 with nitrocefin as reporter substrate, OXA-48:P68A,Y211S. In kind it is biochemical.
Assay [3] deals with MP106 (E. coli TOP10 expressing OXA-48:P68A,Y211S). The assay is described as follows: microbe, parasite or virus in culture. In kind it is cell-based. The note with it: Escherichia coli; Table 3; MP106, OXA-48:P68A,Y211S in pCR-blunt II TOPO.
Assay [4] relates to E. coli TOP10 expressing OXA-48:P68A and OXA-48:P68A,Y211S (MP105, MP106). Format: cell-based.
The subject of assay [5] is OXA-48:P68A and OXA-48:P68A,Y211S. In kind it is biochemical. The note with it: both substitutions compared to native OXA-48.

Molecules are shown by their SMILES. ≈ marks a conversion by molar mass, not a printed value. Where “and” joins values, the source holds several entries; their conditions need not be identical. Equal values may be shown once. Read-outs that look alike come from different tables or passages of the source.

With `CC1(C)S[C@@H]2[C@H](NC(=O)[C@H](N)c3ccccc3)C(=O)N2[C@H]1C(=O)O` [AMP, ampicillin], at OXA-48:P68A,Y211S [1], the kcat – broadly, the maximal rate divided by the concentration of active sites – amounted to 18 ± 1 s⁻¹. Besides, at OXA-48:P68A,Y211S [1] (read-out: Km), the Km (commonly the substrate concentration at which the rate is half of its maximum) came out at 211 ± 26 µM.
Regarding `NC(=O)[C@@H]1CC[C@@H]2CN1C(=O)N2OS(=O)(=O)O` [Avibactam, avibactam], at OXA-48:P68A,Y211S [2] (P68A,Y211S compared to native OXA-48, listed as AVI), the “decrease in inhibitory activity” value is > 5 fold and 5 fold.
Take `CC(C)(O/N=C(\C(=O)N[C@@H]1C(=O)N2C(C(=O)[O-])=C(C[n+]3ccccc3)CS[C@H]12)c1csc(N)n1)C(=O)O` [CAZ, ceftazidime]: the MIC in assay [3] amounted to 8 µg/mL (≈ 14.6 µM). Moreover, the “increased catalytic efficiency (kcat/Km) / hydrolysis” value on OXA-48:P68A,Y211S [1] (P68A,Y211S compared to native OXA-48) was > 20 fold and 20 fold. For the same molecule, on OXA-48:P68A,Y211S [1], the Km amounted to 190 ± 40 µM and the kcat was determined as 42 ± 5 s⁻¹.
The molecule `C[C@@H](O)[C@H]1C(=O)N2C(C(=O)O)=C(S[C@@H]3CN[C@H](CNS(N)(=O)=O)C3)[C@H](C)[C@H]12` [DOR, doripenem] displayed an MIC in assay [3] of 0.03 µg/mL (≈ 0.0713 µM). Besides, the “change in MIC” value in assay [4] (both mutants versus native OXA-48) is recorded as “No change”.
`C[C@@H](O)[C@H]1C(=O)N2C(C(=O)O)=C(S[C@@H]3CN[C@H](C(=O)Nc4cccc(C(=O)O)c4)C3)[C@H](C)[C@H]12` [ETP, ertapenem]: the MIC in assay [3] came out at 0.06 µg/mL (≈ 0.126 µM). Further, the MIC decrease in assay [4] ({}) was 4-16 fold.
In the case of `CO/N=C(\C(=O)N[C@@H]1C(=O)N2C(C(=O)[O-])=C(C[N+]3(C)CCCC3)CS[C@H]12)c1csc(N)n1` [FEP, cefepime], the Km on OXA-48:P68A,Y211S [1] worked out at 1460 µM. Besides, the “change in MIC” value in assay [4] ({}) is listed as not above 2 fold dilution step. For the same molecule, the “change in catalytic efficiency” value in assay [5] is given as “No change”.
For `CO/N=C(\C(=O)N[C@@H]1C(=O)N2C(C(=O)O)=C(COC(C)=O)CS[C@H]12)c1csc(N)n1` [FOT, cefotaxime], in assay [4] ({}), the “change in MIC” value was not above 2 fold dilution step.
In the case of `C[C@@H](O)[C@H]1C(=O)N2C(C(=O)O)=C(SCCN=CN)C[C@H]12` [IMI, imipenem], at OXA-48:P68A,Y211S [1], the Km came out at 14 ± 3 µM and the kcat turned out to be 0.57 ± 0.04 s⁻¹. Further, in assay [4] ({}), the MIC decrease was 4-16 fold.
On to `C[C@@H](O)[C@H]1C(=O)N2C(C(=O)O)=C(S[C@@H]3CN[C@H](C(=O)N(C)C)C3)[C@H](C)[C@H]12` [MEM, meropenem], for which the MIC in assay [3] was determined as 0.03 µg/mL (≈ 0.0782 µM). Besides, the kcat result on OXA-48:P68A,Y211S [1] was “(2 ± 0.2) × 10^−3 s^−1”. Further, in assay [4] ({}), the MIC decrease is 4-16 fold.
Regarding `O=C(Cc1cccs1)N[C@@H]1C(=O)N2C(C(=O)O)=C(/C=C/c3ccc([N+](=O)[O-])cc3[N+](=O)[O-])CS[C@H]12` [NIT, nitrocefin], the kcat on OXA-48:P68A,Y211S [1] came out at 12 ± 1 s⁻¹. Also, the Km on OXA-48:P68A,Y211S [1] (read-out: Km) was determined as 63 ± 9 µM.
As for `CCN1CCN(C(=O)N[C@@H](C(=O)N[C@@H]2C(=O)N3[C@@H]2SC(C)(C)[C@@H]3C(=O)O)c2ccccc2)C(=O)C1=O` [PIP, piperacillin], on OXA-48:P68A,Y211S [1] (read-out: Km), the Michaelis-Menten constant (Km) came out at 155 ± 38 µM.
Turning to `CO[C@@]1(NC(=O)C(C(=O)O)c2ccsc2)C(=O)N2[C@@H](C(=O)O)C(C)(C)S[C@@H]21` (stereo partly drawn) [TRM, temocillin], in assay [4] ({}), the MIC decrease is recorded as 4-8 fold.
As for `C[C@]1(Cn2ccnn2)[C@H](C(=O)O)N2C(=O)C[C@H]2S1(=O)=O` [Tazobactam, tazobactam], the “reduction in the IC50” value on OXA-48:P68A,Y211S [2] (P68A,Y211S compared to native OXA-48, 5 min) is on record as more than 3 fold. Further, half-maximal inhibition against OXA-48:P68A,Y211S [2] (nitrocefin reporter substrate, enzyme and inhibitor incubated 5 min, error = 95% CI) (IC50) was put at 31 ± 5 µM.

Values taken from article PMC6437269, “OXA-48-Mediated Ceftazidime-Avibactam Resistance Is Associated with Evolutionary Trade-Offs” (mSphere, 2019).
